Test system: elongation factor-2 (EF-2)

## DT382 (G53E): Null construct (sequence left out)
  Relative Activity (IVTT): 0.43
  Relative IVTT score: 0.43

Reference: US20090221500
